# Test results: the supplement of paper PMC9931576
# Changes are numbered by the printed parent chain. Human monoclonal antibodies against the spike receptor-binding domain (heavy:light variable regions). IC50 against pseudoviruses bearing the spike of naturally observed variants; lower = stronger; >10 µg/ml means not reached at the top dose. No active / inactive call. The stated detection limit is 0.0005 µg/ml; values near or below 0.001 µg/ml lie at the floor of the assay.
# B1: BD56-1453 (protein)
# chain 1: QVQLVQSGVEVKKPGASVKVSCKASGYTFTNFYIHWVRQAPGQGPEWMGIFNPTDGSRRYAQKFQGRVTMTGDTSTTTVYMELSSLRSEDTAVYYCARSMYTTSSEGYYYSYYLDVWGKGTTVTVSS
# chain 2: QSALTQPASVSGSPGQSITISCTGTSSDVGVYNYVSWYQQHPGKAPKLMIYDVNKRPSGVSNRFSGSKSGNTASLTISGLQAEDEADYYCSSYTSSSIHEVFGGGTKLTVL
# B2: BD56-1455 (protein)
# chain 1: EVQLEESGGGLVQPGGSLRLSCAASGFIFGNYDMHWVRQTTGTDLEWVSIIGTAGDAYYPDSVKGRFTVSRDNAKNSLYLQMSSLRVGDTGVYYCARGRGGTYQEGPYFDYWGQGTLVTVSS
# chain 2: DIQMTQSPSSLSASVGDRVTITCRASQTITNYLNWYQQKPGKAPKLLIYAASKLQSGVPSRFSGSGSGTDFTLTISSLQPEDFATYYCQQSYSIPPLTFGGGTKVEIK
# B3: COV2-2353 (protein)
# chain 1: EVQLVQSGAEVKKPGESLKISCKGFGYNFTNYWIGWVRQMPGKGLEWMGIIYPGDSETRNSPSFQGQVTISADKSMSTAYLQWSSLKASDTAMYYCARLGVSKYCSGGRCLSGGSNWFDPWGQGTLVTVSS
# chain 2: not shown
# B4: BD56-1461 (protein)
# chain 1: EVQLVESGGGLVQPGGSLRLSCAASGIIVSRNYMTWVRQAPGKGLEWVSLIYPGGSTFYADSVKGRFTISRHNSENTLYLQMSSLRLEDTAVYYCARHPYNRPISWGQGTLVTVSS
# chain 2: DIQMTQSPSSLSASVGDRVTITCQATQDILNYLNWYQQKPGKAPKVLIYDSSNLETGVPSRFSGSGSGTNFTFTISSLQPEDIATYYCQQYDNLPITFGQGTRLDIK
# B5: BD56-1463 (protein)
# chain 1: QVQLVQSGAEVKKPGASVKVSCKASGYTFTSYYMYWVRQAPGQGLEWMGIINPSGGDTRYAQKFQGRVTMTRDTSTSTVYMELSSLRSEDTAVFYCARSMYSTSSEGDYYSYYMDVWGEGTTVTVSS
# chain 2: B1 chain 2 with V31T, Y34F, K44R, M49L, N54T, V60F, S96I, E100V, V101I
# B6: BD56-1468 (protein)
# chain 1: QVQLVQSGAEVKKPGASVKVSCKASGYTFTNYYIHWVRQAPGQGLEWMGIVNPSDGSTNYAQKSQGRVTMTRDTSTSTVYLELSSLTSGDTALYYCARSMYSTSSEGYFYYYYLDIWGTGTTVTVSS
# chain 2: QSALTQPASVSGSPGQSITISCTGTNRDVGVYNYVSWYQQHPGQAPKLMMYDVGKRPSGVSSRFSGSKSVNTASLTISGLQAEDEADYYCSSWTSTNTQVVFGGGTRLTVL
# B7: BD56-1469 (protein)
# chain 1: QVQLVESGGGLVKPGGSLRLSCAASGFMFSDFHMSWIRQAPGKGLEWISYIPSSSSYTNYADSVKGRFTISRDNAKNSMYLQMNSLRVEDTAVYYCARLQQIYCSGGSCYSGNYIDYWGQGTLVTVSS
# chain 2: EIVMTQSPATLSVSPGERATLSCRASQSVTSNLAWYQQKPGQAPKLLIYGASTRATGIPARFSGGGSGTDFTLTISSLQSEDFAVYYCQQYDSWPGTFGQGTKLEIK
# Target: SARS-CoV-2 Omicron BA.1 spike pseudovirus
# Assay: pseudovirus neutralization IC50; higher = weaker neutralization
# Protocol: (§1)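 Single-round VSV luciferase pseudovirus mixed with antibody dilutions for 1 h and put on Huh-7 cells for about a day; IC50 from the dose curve.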
row,Binder,pseudovirus neutralization IC50
1,B1,> 10 µg/mL
2,B2,> 10 µg/mL
3,B3,> 10 µg/mL
4,B4,0.00255 µg/mL
5,B5,0.0108 µg/mL
6,B6,0.874 µg/mL
7,B7,0.00241 µg/mL

# Target: SARS-CoV-2 Omicron BA.2 spike pseudovirus
# Assay: as above
# Protocol: as §1
row,Binder,pseudovirus neutralization IC50
1,B1,0.005 µg/mL
2,B2,> 10 µg/mL
3,B3,> 10 µg/mL
4,B4,0.00165 µg/mL
5,B5,0.0155 µg/mL
6,B6,0.0876 µg/mL
7,B7,0.00124 µg/mL

# Target: SARS-CoV-2 Omicron BA.2.75 spike pseudovirus
# Assay: as above
# Protocol: as §1
row,Binder,pseudovirus neutralization IC50
1,B1,> 10 µg/mL
2,B2,> 10 µg/mL
3,B3,> 10 µg/mL
4,B4,0.0167 µg/mL
5,B5,> 10 µg/mL
6,B6,> 10 µg/mL
7,B7,0.00161 µg/mL

# Target: SARS-CoV-2 Omicron BA.5 spike pseudovirus
# Assay: as above
# Protocol: as §1
row,Binder,pseudovirus neutralization IC50
1,B1,0.0228 µg/mL
2,B2,> 10 µg/mL
3,B3,> 10 µg/mL
4,B4,0.00456 µg/mL
5,B5,0.0365 µg/mL
6,B6,> 10 µg/mL
7,B7,> 10 µg/mL

# Target: SARS-CoV-2 Omicron BQ.1.1 spike pseudovirus
# Assay: as above
# Protocol: as §1
row,Binder,pseudovirus neutralization IC50
1,B1,> 10 µg/mL
2,B2,> 10 µg/mL
3,B3,> 10 µg/mL
4,B4,0.763 µg/mL
5,B5,0.0498 µg/mL
6,B6,> 10 µg/mL
7,B7,> 10 µg/mL

# Target: SARS-CoV-2 Omicron XBB spike pseudovirus
# Assay: as above
# Protocol: as §1
row,Binder,pseudovirus neutralization IC50
1,B1,> 10 µg/mL
2,B2,> 10 µg/mL
3,B3,> 10 µg/mL
4,B4,0.142 µg/mL
5,B5,> 10 µg/mL
6,B6,> 10 µg/mL
7,B7,> 10 µg/mL

# Target: SARS-CoV-2 early D614G spike pseudovirus
# Assay: as above
# Protocol: as §1
row,Binder,pseudovirus neutralization IC50
1,B1,0.00527 µg/mL
2,B2,> 10 µg/mL
3,B3,0.324 µg/mL
4,B4,0.00411 µg/mL
5,B5,0.00459 µg/mL
6,B6,0.00111 µg/mL
7,B7,0.00136 µg/mL
